For the assay, the system named is SARS-CoV-2. The assay can be described thus: Antiviral activity determined as inhibition of SARS-CoV-2 induced cytotoxicity of VERO-6 cells at 10 uM after 48 hours exposure to 0.01 MOI SARS CoV-2 virus by high content imaging. The note with it: Chlorocebus sabaeus, Vero C1008.

Usually inhibition stands for the percentage by which the read-out fell short of the control. `CCSC(=N)N`: the inhibition amounted to 0.22%.

The values are drawn from ChEMBL document CHEMBL4495565, “Cytopathic SARS-Cov2 screening on VERO-E6 cells in a large repurposing effort” (2020).
